{
  "source": "paper PMC6070752",
  "key": {"[1]": {"molecular_target": "T1, His6-MgrA (Staphylococcus aureus NCTC8325) (UniProt Q2G0B1)", "T1 sequence (looked up)": "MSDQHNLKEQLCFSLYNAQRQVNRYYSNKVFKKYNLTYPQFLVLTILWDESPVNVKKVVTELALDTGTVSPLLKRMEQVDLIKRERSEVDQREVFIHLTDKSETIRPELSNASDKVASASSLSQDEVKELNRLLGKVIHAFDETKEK", "experiment": "EMSA", "settings": "10 fmol probe; EMSA: 50 mM Tris-HCl pH 8.0, 200 mM NaCl, 25°C, 1 h; recombinant protein; residues 1-147; protein details: His6 (pET28a(+), NdeI/XhoI); label: 5'-biotin (reverse primer); probe letters rebuilt from the primers and the genome"}, "[2]": {"molecular_target": "T1, His6-MgrA (Staphylococcus aureus NCTC8325)", "experiment": "competition with a labelled probe", "settings": "100-fold excess vs Ppsmα-biotin, competed; EMSA: 50 mM Tris-HCl pH 8.0, 200 mM NaCl, 25°C, 1 h; recombinant protein; residues 1-147; protein details: His6 (pET28a(+), NdeI/XhoI); probe letters rebuilt from the primers and the genome"}, "[3]": {"molecular_target": "T1, His6-MgrA (Staphylococcus aureus NCTC8325)", "experiment": "DNase I footprinting", "settings": "2 and 4 μg MgrA/100 μl, 5 mM MgCl2, 1 mM CaCl2, -40 to -6 protected; DNase I footprinting: 20 mM Tris-HCl pH 8.0, 100 mM NaCl, 5 mM MgCl2, 1 mM CaCl2, 2 mM DTT, 25°C, 1 h (DNase I 1 min at 37°C); recombinant protein; residues 1-147; protein details: His6 (pET28a(+), NdeI/XhoI); label: 5'-6-FAM (forward primer); probe letters rebuilt from the primers and the genome"}},
  "note": "Tags and fusion partners may be left off the protein sequences shown.",
  "data": [
    {"sequence": "CCGGAATTCTCTGTTCAATTCATCTTCATAAATATGCTTTGCCTAGACGAGACCTAACGTGTTATTCGTTTTAAACTTATAACATAAAATATAATTAAATTTCTGCTTCATGTCAAATTCATGAGCTTAACCTCTATTAAACCAATGATTGTAAAGATTTTGTAAATGCACCTGTACAGTTAGGCAGTATTTCCCGTCCTTTTAAAATAAAAAATTCGCAGTTATGATCATAACAATTCAAGTTAGGAAAAAAATCAATTACGCACAAGATAACTATGTACAATGAAGTTAACTCATAAGCAAAGGAGGTAATCTTAATGGGTATCATCGCTGGCGGGGATCCGCG (double strand) [psmα promoter fragment (Ppsmα-biotin), 336 bp]", "values": [
      {"measurement": "binding result", "setting": "[1]", "value": "binds"}
    ]},
    {"sequence": "CCGGAATTCTCTGTTCAATTCATCTTCATAAATATGCTTTGCCTAGACGAGACCTAACGTGTTATTCGTTTTAAACTTATAACATAAAATATAATTAAATTTCTGCTTCATGTCAAATTCATGAGCTTAACCTCTATTAAACCAATGATTGTAAAGATTTTGTAAATGCACCTGTACAGTTAGGCAGTATTTCCCGTCCTTTTAAAATAAAAAATTCGCAGTTATGATCATAACAATTCAAGTTAGGAAAAAAATCAATTACGCACAAGATAACTATGTACAATGAAGTTAACTCATAAGCAAAGGAGGTAATCTTAATGGGTATCATCGCTGGCGGGGATCCGCG (double strand) [unlabeled psmα promoter fragment (Ppsmα), 336 bp]", "values": [
      {"measurement": "binding result", "setting": "[2]", "value": "binds"}
    ]},
    {"sequence": "TCTGTTCAATTCATCTTCATAAATATGCTTTGCCTAGACGAGACCTAACGTGTTATTCGTTTTAAACTTATAACATAAAATATAATTAAATTTCTGCTTCATGTCAAATTCATGAGCTTAACCTCTATTAAACCAATGATTGTAAAGATTTTGTAAATGCACCTGTACAGTTAGGCAGTATTTCCCGTCCTTTTAAAATAAAAAATTCGCAGTTATGATCATAACAATTCAAGTTAGGAAAAAAATCAATTACGCACAAGATAACTATGTACAATGAAGTTAACTCATAAGCAAAGGAGGTAATCTTAATGGGTATCATCGCTGGCGGGGATCCGCG (double strand) [psmα promoter fragment 6-FAM, 336 bp]", "values": [
      {"measurement": "binding result", "setting": "[3]", "value": "binds"}
    ]}
  ]
}
